For orientation: Km means the substrate concentration at which the rate is half of its maximum. As usually defined, the IC50 is the concentration that inhibits the measured activity by half.

By UniProt entry, the sequences of proteins in these tests, tags left out. Residues count along the entry.
UniProt O15393, 106-492: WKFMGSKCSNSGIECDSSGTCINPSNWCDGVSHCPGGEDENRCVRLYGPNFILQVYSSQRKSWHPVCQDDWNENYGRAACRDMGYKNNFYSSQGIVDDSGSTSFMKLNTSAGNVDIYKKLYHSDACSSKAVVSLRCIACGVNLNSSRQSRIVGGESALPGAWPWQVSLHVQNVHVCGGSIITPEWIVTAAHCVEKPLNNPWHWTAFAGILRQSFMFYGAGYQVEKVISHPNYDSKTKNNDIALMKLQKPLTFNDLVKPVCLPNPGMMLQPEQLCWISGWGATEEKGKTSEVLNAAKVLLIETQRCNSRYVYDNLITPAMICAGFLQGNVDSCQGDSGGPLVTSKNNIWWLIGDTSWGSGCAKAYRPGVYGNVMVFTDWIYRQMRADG

This is an account of results in paper PMC8694051 (Proceedings of the National Academy of Sciences of the …, 2021).

Residues, ends and D or L forms follow the SMILES beside them. *: point of attachment. AMC = Cc1cc(=O)oc2cc(N*)ccc12; Boc = CC(C)(C)OC(=O)*

The target of the first test is T1, Recombinant human TMPRSS2 (Homo sapiens, UniProt O15393).
Test: not given
Details: not given
As to `Cc1cc(=O)oc2cc(NC(=O)[C@H](CCCNC(=N)N)NC(=O)[C@H](C)NC(=O)[C@H](CCC(N)=O)NC(=O)OC(C)(C)C)ccc12` [Boc-QAR-AMC, reference compound] (Boc-Gln-Ala-Arg-{AMC}), the Km came to 85.6 µM.

Staying with this test, now noted: read-out: TMPRSS2 IC50; full-length recombinant TMPRSS2 3 nM, Boc-QAR-AMC, 30-min preincubation.
Turning to `CC(=O)N[C@@H](Cc1c[nH]c2ccccc12)C(=O)N[C@@H](Cc1ccccc1)C(=O)N[C@@H](CCCNC(=N)N)C(=O)c1nc2ccccc2s1` [Compound 8, Ac-WFR-kbt], the IC50 was 9.4 nM.
Turning to Cyclo(DMK)R-kbt [Compound 19], the IC50 worked out at 19 nM.
Same read-out and setting: then `CC(=O)N[C@@H](CO)C(=O)N[C@@H](CCCCN)C(=O)N[C@@H](Cc1ccccc1)C(=O)N[C@@H](CCCNC(=N)N)C(=O)c1nccs1` [Compound 9, Ac-SKFR-kt], with 7.9 nM; and `N=C(N)NCCC[C@H](NC(=O)[C@H](Cc1ccccc1)NC(=O)[C@H](N)Cc1c[nH]c2ccccc12)C(=O)c1nc2ccccc2s1` [Compound 14, dWFR-kbt], with 39 nM; and `CC(=O)N[C@@H](CC(C)C)C(=O)N[C@@H](CC(C)C)C(=O)N[C@@H](CCCNC(=N)N)C(=O)c1nccs1` [Compound 18, Ac-LLR-kt], with 54 nM.
The same measure, in the same setting: then dWFR-kbt-CO2H [Compound 15], with 42 nM.
On the same count and under the same terms, then `CC(=O)N[C@@H](Cc1ccccc1)C(=O)N[C@@H](CC(C)C)C(=O)N[C@@H](Cc1ccccc1)C(=O)N[C@@H](CCCNC(=N)N)C(=O)c1nc2ccccc2s1` [Compound 12, Ac-FLFR-kbt], with 3 nM.
As to `CC(=O)N[C@H](Cc1c[nH]c2ccccc12)C(=O)N[C@@H](Cc1ccccc1)C(=O)N[C@@H](CCCNC(=N)N)C(=O)c1nc2ccccc2s1` [Compound 13, Ac-dWFR-kbt], the IC50 was determined as 1.1 nM.
Consider `CC(=O)N[C@@H](CCCCN)C(=O)N[C@@H](CCC(N)=O)C(=O)N[C@@H](Cc1ccccc1)C(=O)N[C@@H](CCCNC(=N)N)C(=O)c1nccs1` [Compound 10, Ac-KQFR-kt], for which the IC50 was 29 nM.
On the same count and under the same terms, in the case of `CC(=O)N[C@@H](CO)C(=O)N[C@@H](CCC(N)=O)C(=O)N[C@@H](CC(C)C)C(=O)N[C@@H](CCCNC(=N)N)C(=O)c1nccs1` [Compound 11, Ac-SQLR-kt] it was 16 nM; in that of Cyclo(allylGLY)R-kbt [Compound 21], 197 nM.

A further test deals with T1, Recombinant human TMPRSS2. Put plainly: biochemical.
Details: not given
For `CC(=O)NC(CO)C(=O)NC(CCCCN)C(=O)NC(CC(C)C)C(=O)NC(CCCNC(=N)N)C(=O)c1nc2ccccc2s1` (stereo not shown) [Compound 3, Ac-SKLR-kbt], the IC50 was 39 nM.
